Experimental data taken from patent publication US20010014534A1, “Stripper composition and stripping method” (NEC Corporation, priority 2000, published 2001).

Tested on: liquid culture medium containing a particular microorganism
Assay: Biodegradability according to the OECD method
Settings: decomposition percent of test compound after 28 days, stored at 25° C.

SMILES	Biodegradability
Oc1cccc(O)c1O [Pyrogallol]	◯ (Biodegradability is 30% to less than 80%.)
O=C(O)c1cc(O)c(O)c(O)c1 [Gallic acid]	◯ (Biodegradability is 30% to less than 80%.)
NC(N)=O [Urea]	⊚ (Biodegradability is 80% or more.)
